A mixed list of measured activities; the numbers were collected in NIAID ChemDB.

Common to all: whole-cell or culture tests; species: Mycobacterium tuberculosis

A number after MIC or MFC names an inhibition level or a share of isolates. Blank or dashed fields: not listed here. ECn: concentration that inhibits the pathogen or its effect by n%. Inhibition is in % at the dose shown (toxicity tests: loss of growth or viability). MIC bound comes from a single tested concentration. Rows are shuffled and stem from different studies.

SMILES | strain | method | setting | read-out | tested at | result
CO[C@H]1/C=C/O[C@@]2(C)Oc3c(C)c(O)c4c(O)c(c(/C=N/N5CCC(N(C)C)CC5)c(O)c4c3C2=O)NC(=O)/C(C)=C\C=C\[C@H](C)[C@H](O)[C@@H](C)[C@@H](O)[C@@H](C)[C@H](OC(C)=O)[C@@H]1C | H37Rv | - | - | MIC | - | 2 µg/mL
CCn1c(SCC(=O)N/N=C/c2cccc(OC)c2)nnc1-c1ccco1 | H37Rv | - | - | EC50 | - | >6.25 µg/mL
CCCCCCCCC=CCCCCCCCCNCc1cccnc1 | Sensitive strains | - | - | MIC | - | 3.12 µg/mL
Cc1cc(C2=NOC(c3cccc([N+](=O)[O-])c3)C2)ccc1O | INH-resistant M. tuberculosis | - | - | MIC | - | 6.12 µM
CCCCOC(=O)C1=C(C)NC(C)=C(C(=O)N(CC)CC)C1c1ncc([N+](=O)[O-])n1C | H37Rv (ATCC 27294) | - | - | MIC | - | 0.001 µM
Cc1cc(C2=NOC(c3ccccc3Cl)C2)ccc1O | H37R (MTB) | - | - | MIC | - | 0.72 µM
CCn1c(SCC(=O)NN)nnc1-c1ccco1 | H37Rv | - | - | EC50 | - | >6.25 µg/mL
COC(=O)c1sc(-c2ccncc2)nc1OCc1cnnn1-c1cc2ccc(O)cc2oc1=O | H37Rv | resazurin | - | MIC | - | 26.18 µM
CCN(CC)C(=O)C1=C(C)NC(C)=C(C(=O)OCCCCCc2ccccc2)C1c1ncc([N+](=O)[O-])n1C | H37Rv (ATCC 27294) | - | - | MIC | - | 0.002 µM
O=C(NCc1ccc(C(F)(F)F)cc1)c1ncccc1O | CNCTC MY 331/8 | - | - | MIC | - | 125 µM
COC(=O)c1sc(-c2ccccn2)nc1OCc1cnnn1-c1cc2ccc(O)cc2oc1=O | H37Rv | resazurin | - | MIC | - | 26.18 µM
COc1ccc2c(=O)oc3c(OC)cc(CCN(C)C)c4c(=O)oc1c2c34 | H37Rv | BACTEC | - | inhibition | 128 µg/mL | 99%
NNC(=O)c1ccnc2ccccc12 | H37Ra | BACTEC | - | MIC | - | >6.25 µg/mL
CO[C@H]1/C=C/O[C@@]2(C)Oc3c(C)c(O)c4c(O)c(c(/C=N/N5CCN(C)CC5)c(O)c4c3C2=O)NC(=O)/C(C)=C\C=C\[C@H](C)[C@H](O)[C@@H](C)[C@@H](O)[C@@H](C)[C@H](OC(C)=O)[C@@H]1C | H37Rv | resazurin | - | MIC | - | 0.23 µM
O=C(Nc1ccc(Br)cc1)c1ccccc1O | CNCTC MY 331/8 | - | - | MIC | - | 31 µM
Cn1cnc2c(NC(=O)c3ccccc3C(F)(F)F)nc(Cl)cc21 | H37Rv | visual reading | - | MIC99 | - | 0.25 µM
NNC(=O)CNc1ccc2ccccc2c1 | H37Rv | - | 21 d | EC50 | - | <1 µg/mL
CC(SC(C)C(=O)NN=C1CCSCC1)C(=O)NN=C1CCSCC1 | H37Rv | BACTEC | - | inhibition | 12.5 µg/mL | 17%
NNC(=O)c1cc(C2CCCCC2)c2ccccc2n1 | H37Ra | BACTEC | - | MIC | - | >6.25 µg/mL
O=C(NCCO)C(=O)N/N=C/c1ccc([N+](=O)[O-])o1 | CS-R | - | - | MIC | - | 6.3 µg/mL
CCOc1ccc2cc(-n3nncc3COc3nc(-c4cccnc4)sc3C(=O)O)c(=O)oc2c1 | H37Rv | resazurin | - | MIC | - | 25.43 µM
NNC(=O)Cc1cc(C2CCCC2)nc2c(C3CCCC3)cccc12 | H37Ra | BACTEC | - | MIC | - | >6.25 µg/mL
COc1nc2ccc(Br)cc2c2c1C(C)(OCC(O)Cn1ccnc1)c1ccccc1-2 | H37Rv | BACTEC / radiometric | - | MIC | - | 6.51 µM
S=C(Nc1nc2ccccc2s1)SSC(=S)Nc1nc2ccccc2s1 | H37Rv | BACTEC | - | MIC bound | - | ≤128 µg/mL
CCCCc1nc(Cl)c(C2C(C(=O)Nc3cccc(OC)c3)=C(C)NC(C)=C2C(=O)Nc2cccc(OC)c2)[nH]1 | H37Rv | resazurin | - | inhibition | 6.25 µg/mL | 78%
C[C@H]1CC[C@@H]2N(C1)C[C@@H]1[C@](O)([C@@H](O)C[C@@]3(O)[C@@H]4CC[C@@H]5[C@]6(O)O[C@@]4(C[C@@]13O)[C@@]5(C)CC[C@H]6O)[C@]2(C)O | H37Rv | BACTEC | - | inhibition | 12.5 µg/mL | 14%
COC(=O)c1sc(-c2ccccc2)nc1OCc1cnnn1-c1cc2ccc(N)cc2oc1=O | H37Rv | resazurin | - | MIC | - | 13.15 µM
CSC(=S)N/N=C(/C)c1cccs1 | PZA-R | - | - | MIC | - | 0.8 µg/mL
NNC(=O)Cc1cc(C2CCCCC2)nc2ccccc12 | H37Ra | BACTEC | - | inhibition | 6.25 µg/mL | 12%
CO[C@H]1/C=C/O[C@@]2(C)Oc3c(C)c(O)c4c(O)c(c(/C=N/N(C)c5ccccc5)c(O)c4c3C2=O)NC(=O)/C(C)=C\C=C\[C@H](C)[C@H](O)[C@@H](C)[C@@H](O)[C@@H](C)[C@H](OC(C)=O)[C@@H]1C | H37Rv | - | - | MIC | - | 0.02 µg/mL
CCCCCCNC(=O)c1cc(C2C3CC4CC(C3)CC2C4)c2ccccc2n1 | H37Ra | BACTEC | - | inhibition | 6.25 µg/mL | 12%
[N-]=[N+]=N[C@H]1C[C@H](n2ccc(N)nc2=O)O[C@@H]1CO | H37Rv | BACTEC | - | MIC bound | - | >12.5 µg/mL
CCCCCCCCC=CCCCCCCCCNCc1ccc(O)c(OC)c1 | Clinical isolates MDR | - | - | MIC | - | 25 µg/mL
Cc1ccc(NC(=O)c2ncccc2S)cc1 | CNCTC MY 331/8 | - | - | MIC | - | 16 µM
O=C(N/N=C/c1cccc2ccccc12)C(=O)N/N=C/c1cccc2ccccc12 | H37Rv | BACTEC | - | inhibition | 12.5 µg/mL | -6%
O=C(NCc1ccc(F)cc1)c1ncccc1O | CNCTC MY 331/8 | - | - | MIC | - | 500 µM
Cc1cc(C2=NOC(c3c(Cl)cccc3Cl)C2)ccc1O | INH-resistant M. tuberculosis | - | - | MIC | - | 2.9 µM
Cn1cnc2c(NC(=O)c3ccccc3Cl)nc(Cl)cc21 | H37Rv | visual reading | - | MIC99 | - | 25 µM
Cc1ccc2c(c1)C(=O)N(N(C)C)CC(=O)N2 | H37Rv | BACTEC | - | inhibition | 12.5 µg/mL | 3%
CCCCCCCCC=CCCCCCCCCNCc1ccncc1 | Sensitive strains | - | - | MIC | - | 6.25 µg/mL
COC(=O)c1sc(-c2cccnc2)nc1OCc1cnnn1-c1cc2ccc(O)cc2oc1=O | H37Rv | resazurin | - | MIC | - | 26.18 µM
CCCCc1nc(Cl)c(C2C(C(=O)Nc3ccc([N+](=O)[O-])cc3)=C(C)NC(C)=C2C(=O)Nc2ccc([N+](=O)[O-])cc2)[nH]1 | H37Rv | - | - | MIC | - | 0.02 µg/mL
Cc1csc(N2C(=O)C3C4CCC(O4)C3C2=O)n1 | H37Rv | BACTEC | - | MIC bound | - | >12.5 µg/mL
O=C(O)c1sc(-c2ccccn2)nc1OCc1cnnn1-c1cc2ccc(O)cc2oc1=O | H37Rv | resazurin | - | MIC | - | 26.97 µM
CCOC(=O)C1=C(C)NC(C)=C(C(=O)N(CC)CC)C1c1ncc([N+](=O)[O-])n1C | H37Rv (ATCC 27294) | - | - | MIC | - | 0.25 µM
CO[C@H]1/C=C/O[C@@]2(C)Oc3c(C)c(O)c4c(O)c(c(/C=N/N=C/c5ccccc5)c(O)c4c3C2=O)NC(=O)/C(C)=C\C=C\[C@H](C)[C@H](O)[C@@H](C)[C@@H](O)[C@@H](C)[C@H](OC(C)=O)[C@@H]1C | H37Rv | - | - | MIC | - | 1 µg/mL
COC(=O)C(=O)C1CCc2c(C(=O)OC)nc3[nH]n(-c4ccccc4)c(=O)c3c21 | H37Rv | BACTEC | - | inhibition | 12.5 µg/mL | 13%
O=Nc1c2c(-n3ccnc3)[nH]c3ccc(Br)cc3c-2c2ccccc12 | H37Rv | BACTEC / radiometric | - | MIC | - | <0.99 µM
COc1ccc(-c2c3c([nH]c(=S)c2C#N)CCC3)cc1 | H37Rv | BACTEC | - | inhibition | 12.5 µg/mL | 8%
CCCCCCCCCCCCNCc1ccc(Cl)cc1 | Sensitive strains | - | - | MIC | - | 3.12 µg/mL
NC(=S)NN=C1CSSC1 | H37Rv | BACTEC | - | MIC | - | 12.5 µg/mL
CCCCc1nc(Cl)c(C2C(C(=O)Nc3ccc(OC)cc3)=C(C)NC(C)=C2C(=O)Nc2ccc(OC)cc2)[nH]1 | H37Rv | resazurin | - | inhibition | 6.25 µg/mL | 66%
CO[C@H]1/C=C/O[C@@]2(C)Oc3c(C)c(O)c4c(O)c(c(/C=N/N5CCOCC5)c(O)c4c3C2=O)NC(=O)/C(C)=C\C=C\[C@H](C)[C@H](O)[C@@H](C)[C@@H](O)[C@@H](C)[C@H](OC(C)=O)[C@@H]1C | H37Rv | - | - | MIC | - | 0.2 µg/mL
COc1cc(C2(c3ncc[nH]3)S[C@@H](c3c(/C(=N/O)C(=O)O)[nH]c4ccccc34)SC[C@H]2O)ccc1O | H37Rv | - | - | inhibition | 12.5 µg/mL | 10%
Cn1cnc2c(NC(=O)Nc3cccc(C#N)c3)nc(Cl)cc21 | H37Rv | visual reading | - | MIC99 | - | >25 µM
CCn1c(SCC(=O)N/N=C/c2ccc(OC)cc2)nnc1-c1ccco1 | H37Rv | - | - | inhibition | 6.25 µg/mL | 18%
COC(=O)c1sc(-c2cccnc2)nc1OCc1cnnn1-c1cc2ccc(N)cc2oc1=O | H37Rv | resazurin | - | MIC | - | 13.12 µM
CCn1c(SCC(=O)N/N=C/c2cc(O)ccc2Br)nnc1-c1ccco1 | H37Rv | - | - | EC50 | - | >6.25 µg/mL
CCN(CC)C(=O)C1=C(C)NC(C)=C(C(=O)OCCCc2ccccc2)C1c1ncc([N+](=O)[O-])n1C | H37Rv (ATCC 27294) | - | - | MIC | - | 0.001 µM
Cn1cnc2c(NC(=O)c3ccccc3)nc(Cl)cc21 | H37Rv | visual reading | - | MIC99 | - | >25 µM
CCCCCCCCC=CCCCCCCCCNCc1ccc(OC)c(OC)c1 | H37Ra | - | - | MIC | - | <25 µg/mL
O=C(Nc1ccc(Br)cc1)c1ncccc1O | CNCTC MY 331/8 | - | - | MIC | - | 62.5 µM
COc1ccc(NC(=O)c2cc(C3C4CC5CC(C4)CC3C5)c3ccccc3n2)cc1 | H37Ra | BACTEC | - | MIC | - | >6.25 µg/mL
NC(=O)c1cnccn1 | TMC311 | - | 7 d | inhibition | 800 µg/mL | -10%
COC1=CC(=O)C2=C(OCO2)C1=O | H37Rv | BACTEC | - | MIC bound | - | >12.5 µg/mL
NNC(=O)c1ccncc1 | H37Rv | - | - | MIC | - | 0.03 µg/mL
NNC(=O)c1cc(C2CCCC2)nc2ccccc12 | H37Ra | BACTEC | - | inhibition | 6.25 µg/mL | 2%
CO[C@H]1/C=C/O[C@@]2(C)Oc3c(C)c(O)c4c(O)c(c(/C=N/NCc5ccccc5)c(O)c4c3C2=O)NC(=O)/C(C)=C\C=C\[C@H](C)[C@H](O)[C@@H](C)[C@@H](O)[C@@H](C)[C@H](OC(C)=O)[C@@H]1C | H37Rv | - | - | MIC | - | 0.5 µg/mL
Cc1cn(CCCCCCCCCCCCOc2c3occc3cc3ccc(=O)oc23)c(=O)[nH]c1=O | H37Rv | BACTEC | - | inhibition | 12.5 µg/mL | -23%
CCN(CC)C(=O)C1=C(C)NC(C)=C(C(=O)OCCc2ccccc2)C1c1ncc([N+](=O)[O-])n1C | H37Rv (ATCC 27294) | - | - | MIC | - | 0.001 µM
CCC(=O)CCC1=Nc2nnc(CCCCc3nnc4n3C(=O)C(CCC(=O)CC)=N4)n2C1=O | H37Rv | BACTEC | - | inhibition | 12.5 µg/mL | 0%
NNC(=O)c1cnc2ccccc2c1 | H37Ra | BACTEC | - | inhibition | 6.25 µg/mL | 0%
COc1cccc2c1[n+]([O-])c1cccc(O)c1[n+]2[O-] | H37Rv | BACTEC | - | MIC | - | 0.8 µg/mL
CCCCCCCCNC(CCO)c1cccc(Cl)c1 | Sensitive strains | - | - | MIC | - | 12.5 µg/mL
Cc1c(N)nc(C(CC(N)=O)NCC(N)C(N)=O)nc1C(=O)NC(C(=O)NC(C)C(O)CC(=O)NC(C(=O)NC(OC1OC(C)C(N)C(O)C1O)C(O)c1nc(-c2nc(C(=O)NCCC[S+](C)C)cs2)cs1)C(C)O)C(OC1OC(CO)C(O)C(O)C1OC1OC(CO)C(O)C(OC(N)=O)C1O)c1cnc[nH]1.Cl.Cl.Cl.[Cl-] | INH-r | - | - | MIC | - | 0.4 µg/mL
CCCCCCCCCCCCCCCCNCc1ccc(F)cc1 | Sensitive strains | - | - | MIC | - | 12.5 µg/mL
CN(c1ccc(C(N)=O)cc1)c1c(O)c2ccccc2[nH]c1=O | H37Rv | BACTEC | - | inhibition | 12.5 µg/mL | 22%
CCOC(=O)CC(c1cccc([N+](=O)[O-])c1)N1CCCC1 | H37Ra | - | - | MIC | - | >25 µg/mL
Cn1c(=O)c2c3oc(=O)cc(O)c3c(=O)n3c4ccccc4n(c1=O)c23 | H37Rv | BACTEC | - | MIC bound | - | >12.5 µg/mL
Cc1cc(C2=NOC(c3ccc(Br)cc3)C2)ccc1O | INH-resistant M. tuberculosis | - | - | MIC | - | 0.62 µM